Test results: patent US20250011397A1 (HOSPITAL FOR SICK CHILDREN, published 2025)

B1: mAb 80 (antibody, V domains shown)
VH: QVQLVQSGAEVKKPGSSVKVSCKASGGTFNRYAFSWVRQAPGQGLEWMGGIIPIFGTANYAQKFQGRVTITADESTSTAYMELSSLRSEDTAVYYCARSTRELPEVVDWYFDLWGRGTLVTVSS
VL: DIVMTQSPDSLAVSLGERATINCKSSQSVLYSSNNKNYLAWYQQKPGQPPKLLIYWASTRESGVPDRFSGSGSGTDFTLTISSLQAEDVAVYYCQQYYSAPLTFGGGTKVEIKR
notes: also called IgG 80; 80 mAb
B2: mAb 298 (antibody, V domains shown)
VH: QVQLVQSGAEVKKPGASVKVSCKASGGTFSTYGISWVRQAPGQGLEWMGWISPNSGGTDLAQKFQGRVTMTRDTSTSTVYMELSSLRSEDTAVYYCASDPRDDIAGGYWGQGTLVTVSS
VL: not shown
notes: also called IgG 298; antibody 298

Key:
[1] = molecular target: T1, SARS-CoV-2 Spike on HIV-based pseudotyped virus (Spike plasmid BEI NR52310) (SARS-CoV-2, UniProt P0DTC2 14-1273); experiment: cell-based or functional assay
[2] = molecular target: Spike of authentic SARS-CoV-2/SB2-P4-PB virus (SARS-CoV-2, UniProt P0DTC2 14-1273); experiment: cell-based or functional assay
[3] = molecular target: T1, SARS-CoV-2 Spike on HIV-based …; experiment: cell-based or functional assay; remark: listed apart in the source
[4] = molecular target: T2, SARS-CoV-2 receptor binding domain (RBD), wild type, His-tagged (BEI NR52309) (SARS-CoV-2, UniProt P0DTC2 319-541); experiment: RBD KD column; method and antibody format not stated
T2 construct: also called WT RBD

| Binder | IC50 SARS-CoV2 PsV (µg/mL), IgG [1] | IC50 SARS-CoV2/SB2-P4-PB (µg/mL), IgG [2] | Median IC50 (PsV neutralization) [3] | Kd [4] |
| --- | --- | --- | --- | --- |
| B1 | 0.1 µg/mL | 12.7 µg/mL | 0.1 µg/mL and 0.67 nM | 142 nM |
| B2 | 2.8 µg/mL | 2.2 µg/mL | 0.28 µg/mL and 1.9 nM | 24 nM |

Several values for one entry are separate records, joined by “and”; a condition that tells them apart may be missing. Identical values can stand only once.
